In the assay the target is TcpK (Clostridium perfringens (plasmid pCW3)). The experiment in a line: AUC.

Broadly, the stoichiometry N is the number of molecules, sites or subunits per partner or assembly.

As to TcpK (natural protein), the stoichiometry N amounted to 2.

The record behind these values is article PMC6137059, “Crystal structure of TcpK in complex with oriT DNA of the antibiotic resistance plasmid pCW3” (2018).
